According to PubChem BioAssay AID489010 (Southern Research Specialized Biocontainment Screening …, 2010):

Tested on: M. tuberculosis H37Rv growth inhibition
Test: M. tuberculosis H37Rv growth inhibition, dose response, strain H37Rv (AID 489010)
Conditions: measured here: H37Rv growth IC50

CCc1nc2c(n1)c1c(non1O)c1c2no[n+]1[O-]
IC50: 11.5 µM
